These results are taken from publication PMC12293048, “New Benzimidazole 3′-Deoxynucleosides: Synthesis and Antiherpes Virus Properties” (Biomolecules, 2025).

For one series, the system named is HSV-1/L2. As to the kind of experiment: CPE inhibition assay, HSV-1 reference strain L2 in Vero E6 cells. Type of series: cell-based, herpes simplex virus 1. The settings on record: Vero E6, MOI 0.01. As for the experimental part:
(§1) Vero 6 cells for determining cytotoxicity and antiviral activity were cultured according to the method described in [29].
Vero E6 cells were then infected with the infection material at an MOI of 0.01 PFU/cell; incubation was performed at 37 °C in an atmosphere of 5% CO2. […] The duration of incubation was 48 h and 72 h for MOI 0.01 PFU/mL, respectively. […] The results of three independent experiments are shown in Table S1 (Supplementary Materials).

Another series concerns HSV-1/L2/R^ACV. In kind it is cell-based, herpes simplex virus 1. As to conditions: Vero E6, MOI 0.01, acyclovir-resistant strain. As for the experimental part: as §1
In 96-well plastic plates with the generated cell monolayer, serial dilutions of the compounds were prepared at […] 1:2 with the maintenance medium (Eagle′s medium and medium 199, mixed in a ratio 1:1). Vero E6 cells were then infected with the infection material at an MOI of 0.01 PFU/cell; incubation was performed at 37 °C in an atmosphere of 5% CO2. Cytotoxicity was determined quantitatively by the trypan blue exclusion method and expressed as CD50: the concentration of the drug at which 50% of cells die after 72 h. […] The duration of incubation was 48 h and 72 h for MOI […], respectively. […] An antiviral activity was assessed by determining ID50 and ID95 (concentrations of compounds that inhibit the development of virus-induced CPE as compared with the control by 50% and almost completely). […] The results of three independent experiments are shown in Table S1 (Supplementary Materials).

Consider `Nc1nc2cc(F)c(F)cc2n1[C@@H]1O[C@H](CO)C[C@H]1O` [Compound 16, 2-Amino-5,6-difluoro-1-(β-D-3′-deoxyribofuranosyl)benzimidazole], for which the “SI (CD50/IC50) HSV-1/L2” value with HSV-1/L2 came to 3. Moreover, in the series with HSV-1/L2/R^ACV, the “SI (CD50/IC50) HSV-1/L2/R^ACV” value stood at 3.
With `OC[C@@H]1C[C@@H](O)[C@H](n2cnc3cc(F)c(F)cc32)O1` [Compound 10, 5,6-Difluoro-1-(β-D-3′-deoxyribofuranosyl)benzimidazole], in the series with HSV-1/L2, the “SI (CD50/IC50) HSV-1/L2” value was found to be 12. Further, the “SI (CD50/IC50) HSV-1/L2/R^ACV” value in the series with HSV-1/L2/R^ACV is 2.
With `Nc1nc2ccccc2[nH]1` [Compound 6, 2-aminobenzimidazole], in the series on HSV-1/L2, the “SI (CD50/IC50) HSV-1/L2” value was 3.03. Besides, in the series with HSV-1/L2/R^ACV, the “SI (CD50/IC50) HSV-1/L2/R^ACV” value stood at 2.02.
As to `COc1c(F)cc2c(ncn2[C@@H]2O[C@H](CO)C[C@H]2O)c1F` [Compound 13, 4,6-Difluoro-5-metoxy-1-(β-D-3′-deoxyribofuranosyl)benzimidazole], in the series on HSV-1/L2, the “SI (CD50/IC50) HSV-1/L2” value is above 3. The “SI (CD50/IC50) HSV-1/L2/R^ACV” value with HSV-1/L2/R^ACV is given as above 2.
For `COc1cc2nc(N)[nH]c2cc1F` [Compound 7, 2-amino-5-fluoro-6-methoxybenzimidazole], the “SI (CD50/IC50) HSV-1/L2” value with HSV-1/L2 is 12.55. For the same compound, the “SI (CD50/IC50) HSV-1/L2/R^ACV” value in the series on HSV-1/L2/R^ACV amounted to 12.55.
Consider `OC[C@@H]1C[C@@H](O)[C@H](n2cnc3ccccc32)O1` [Compound 9, 1-(β-D-3′-Deoxyribofuranosyl)benzimidazole], for which the “SI (CD50/IC50) HSV-1/L2” value in the series on HSV-1/L2 was above 8. The “SI (CD50/IC50) HSV-1/L2/R^ACV” value with HSV-1/L2/R^ACV is given as above 4.
The corresponding values for `Nc1nc2cc(F)c(F)cc2[nH]1` [Compound 8, 2-Amino-5,6-difluorobenzimidazole] are 4.49 and 4.49.
For the compound `Fc1cc2nc[nH]c2cc1F` [Compound 2, 5,6-Difluorobenzimidazole], the “SI (CD50/IC50) HSV-1/L2” value in the series with HSV-1/L2 is recorded as 12.32. In addition, in the series on HSV-1/L2/R^ACV, the “SI (CD50/IC50) HSV-1/L2/R^ACV” value came to 6.16.
Regarding `c1ccc2[nH]cnc2c1` [Compound 1, Benzimidazole], the “SI (CD50/IC50) HSV-1/L2” value with HSV-1/L2 came to 5.96. Besides, the “SI (CD50/IC50) HSV-1/L2/R^ACV” value with HSV-1/L2/R^ACV worked out at 5.96.
Regarding `OC[C@@H]1C[C@@H](O)[C@H](n2cnc3c(F)c(F)c(F)cc32)O1` [Compound 12a, 4,5,6-trifluoro-1-(β-D-3′-deoxyribofuranosyl)benzimidazole], the “SI (CD50/IC50) HSV-1/L2” value in the series on HSV-1/L2 worked out at 16; in the series on HSV-1/L2 (listed as 4,5,6-trifluoro-1-(β-D-3′-deoxyribofuranosyl)benzimidazole) it was 16.00. For the same compound, in the series with HSV-1/L2/R^ACV, the “SI (CD50/IC50) HSV-1/L2/R^ACV” value is reported as 8.
For `OC[C@@H]1C[C@@H](O)[C@H](n2cnc3c(F)cc(F)cc32)O1` [Compound 11a, 4,6-difluoro-1-(β-D-3′-deoxyribofuranosyl)benzimidazole], in the series on HSV-1/L2, the “SI (CD50/IC50) HSV-1/L2” value is listed as above 8. The “SI (CD50/IC50) HSV-1/L2/R^ACV” value in the series with HSV-1/L2/R^ACV is above 1.
With `Fc1cc(F)c2[nH]cnc2c1` [Compound 3, 4,6-Difluorobenzimidazole], the “SI (CD50/IC50) HSV-1/L2” value in the series with HSV-1/L2 came to 3.07; in the series with HSV-1/L2 (listed as 4,6-difluoro-benzimidazole), 12.32. Also, the “SI (CD50/IC50) HSV-1/L2/R^ACV” value in the series on HSV-1/L2/R^ACV was determined as 3.07.
Turning to `COc1c(F)cc2nc[nH]c2c1F` [Compound 5, 4,6-Difluoro-5-methoxybenzimidazole], the “SI (CD50/IC50) HSV-1/L2” value in the series on HSV-1/L2 was found to be 2.86. Moreover, in the series with HSV-1/L2/R^ACV, the “SI (CD50/IC50) HSV-1/L2/R^ACV” value was 2.14.
As to `Fc1cc2nc[nH]c2c(F)c1F` [Compound 4, 4,5,6-Trifluorobenzimidazole], the “SI (CD50/IC50) HSV-1/L2” value in the series with HSV-1/L2 worked out at 6.00. Also, in the series with HSV-1/L2/R^ACV, the “SI (CD50/IC50) HSV-1/L2/R^ACV” value was 6.00.
